Reference: patent publication US9382276B2, “Water-soluble O-carbonyl phosphoramidate prodrugs for therapeutic administration” (MicuRx Pharmaceuticals, Inc., priority 2014, dated 2016)

Tested on: Staphylococcus aureus strain SAU1018
Test: mouse peritonitis infection model (survival, ED50)
Type: in vivo
Settings: for ED50 (effective dose for survival of 50% of animals): intravenous injection, sodium salt in saline solution, S. aureus SAU1018 mouse infection

| Compound | ED50 (effective dose for survival of 50% of animals) | ED50 (solution administered orally, sodium salt form, mouse S. aureus infection) |
| --- | --- | --- |
| O=C1C=CN(c2c(F)cc(N3C[C@H](CN(c4ccon4)P(=O)(O)O)OC3=O)c(F)c2F)CC1 | about 10 mg/kg | – |
| CCOC(=O)CCC(=O)OP(=O)(O)N(C[C@H]1CN(c2cc(F)c(N3C=CC(=O)CC3)c(F)c2F)C(=O)O1)c1ccon1 | 10 mg/kg | – |
| CC(=O)OP(=O)(O)N(C[C@H]1CN(c2cc(F)c(N3C=CC(=O)CC3)c(F)c2F)C(=O)O1)c1ccon1 | 10 mg/kg | about 8 mg/kg |
